Conditions: 2 nmol 13-QY9-6 in 45μg monocyte extract, in 10 minutes, mass spectrometry

SMILES: CSCC[C@H](NC(=O)[C@@H]1CCCN1C(=O)[C@H](CCCNC(=N)N)NC(=O)[C@H](CC(C)C)NC(=O)[C@@H]1CCCN1C(=O)[C@@H](NC(=O)[C@H](CCC(N)=O)NC(=O)[C@@H]1CCCN1C(=O)[C@@H](NC(=O)[C@@H](NC(=O)[C@@H]1CCCN1C(=O)[C@H](Cc1ccccc1)NC(=O)CNC(=O)[C@@H](NC(=O)[C@H](CCC(=O)O)NC(=O)[C@H](CCC(=O)O)NC(=O)[C@H](CCC(=O)O)NC(=O)[C@H](CCC(=O)O)NC(=O)[C@H](CCC(N)=O)NC(=O)[C@H](C)N)C(C)C)C(C)C)[C@@H](C)O)C(C)C)C(=O)N[C@H](C(=O)N[C@@H](Cc1ccc(O)cc1)C(=O)N[C@@H](CCCCN)C(=O)N[C@@H](C)C(=O)N[C@@H](C)C(=O)N[C@H](C(=O)N[C@@H](CC(=O)O)C(=O)N[C@@H](CC(C)C)C(=O)O)C(C)C)[C@@H](C)O [13-QY9-6]
- yield of 8-25aa peptides (share of degradation products): 60%

— article PMC4201977 (Journal of immunology (Baltimore, Md. : 1950), 2014)
